# Reference: article PMC3157426 (PLoS ONE, 2011)
# Biological target: NWS/G70C H1N9 wild type NA (Influenza A virus, UniProt P03472)
# Details: G70C H1N9 wt; IC50s with versus without preincubation
substance,measurement,value
"2-deoxy,2,3-dehydro N-acetyl neuraminic acid",binding phenotype (slow or fast binding),fast binding
